{"source": "paper PMC6586010", "about": "(Journal of Clinical Pharmacology, 2018)", "key": {"[1]": {"details": "cited from earlier work"}, "[2]": {"format": "in vivo, human"}, "P‐glycoprotein": {"tested_on": "P‐glycoprotein", "details": "cited from earlier work"}, "[3]": {"details": "cited from earlier work", "remark": "listed apart in the source"}, "Study 1": {"assay": "Study 1", "format": "in vivo, human", "details": "for Cavg, Median (Range): study 1, estimated for maraviroc 300 mg twice daily"}, "[4]": {"tested_on": "organic anion‐transporting polypeptide 1B1", "details": "cited from earlier work"}, "[5]": {"details": "part 1, maraviroc 300 mg twice daily alone"}, "[6]": {"details": "part 1, maraviroc 300 mg twice daily, cohort 1 (black PMs)"}, "[7]": {"details": "part 1, maraviroc 300 mg twice daily, cohort 2 (black IMs)"}, "[8]": {"details": "part 1, maraviroc 300 mg twice daily, cohort 3 (black EMs)"}, "[9]": {"details": "part 1, maraviroc 300 mg twice daily, cohort 4 (white PMs)"}, "[10]": {"details": "part 2, maraviroc 150 mg + darunavir/cobicistat 800/150 mg once daily, cohort 1 (black PMs)"}, "[11]": {"details": "part 2, maraviroc 150 mg + darunavir/cobicistat 800/150 mg once daily, cohort 3 (black EMs)"}, "[12]": {"details": "single dose of maraviroc 300 mg, healthy volunteers"}}, "note": "Where two headings read alike, the source gives them in different places.", "data": [{"substance": "Maraviroc", "values": [{"measurement": "Absorption (predicted)", "setting": "[1]", "result": "approximately 84%"}, {"measurement": "first-pass extraction", "setting": "[1]", "result": 60, "unit": "%"}, {"measurement": "lower maraviroc exposure with concomitant use of efavirenz", "setting": "[1]; efavirenz, CYP3A inducer", "result": 45, "unit": "%"}, {"measurement": "Cavg higher, black PMs compared with white PMs", "setting": "[2]; [5]", "result": 17, "unit": "%"}, {"measurement": "Cavg lower, black IMs (cohort 2) vs black PMs (cohort 1)", "setting": "[2]; [5]", "result": 14, "unit": "%"}, {"measurement": "adjusted geometric mean C12 lower, black EMs (cohort 3) vs black PMs (cohort 1)", "setting": "[2]; [5]", "result": 24, "unit": "%"}, {"measurement": "adjusted geometric mean C12 lower, black EMs (cohort 3) vs white PMs (cohort 4)", "setting": "[2]; [5]", "result": 28, "unit": "%"}, {"measurement": "adjusted geometric mean Cmax lower, black EMs (cohort 3) vs white PMs (cohort 4)", "setting": "[2]; [5]", "result": "~28", "unit": "%"}, {"measurement": "AUC12, adjusted geometric mean", "setting": "[2]; [6]", "result": 3441, "unit": "ng·h/mL"}, {"measurement": "C12, adjusted geometric mean", "setting": "[2]; [6]", "result": 59.84, "unit": "ng/mL"}, {"measurement": "Cavg, adjusted geometric mean", "setting": "[2]; [6]", "result": 286.8, "unit": "ng/mL"}, {"measurement": "Cmax, adjusted geometric mean", "setting": "[2]; [6]", "result": 863.9, "unit": "ng/mL"}, {"measurement": "AUC12, adjusted geometric mean", "setting": "[2]; [7]", "result": 2954, "unit": "ng·h/mL"}, {"measurement": "C12, adjusted geometric mean", "setting": "[2]; [7]", "result": 63.09, "unit": "ng/mL"}, {"measurement": "Cavg, adjusted geometric mean", "setting": "[2]; [7]", "result": 246.2, "unit": "ng/mL"}, {"measurement": "Cmax, adjusted geometric mean", "setting": "[2]; [7]", "result": 754.0, "unit": "ng/mL"}, {"measurement": "AUC12, adjusted geometric mean", "setting": "[2]; [8]", "result": 2181, "unit": "ng·h/mL"}, {"measurement": "Cavg, adjusted geometric mean", "setting": "[2]; [8]", "result": 181.6, "unit": "ng/mL"}, {"measurement": "Cmax, adjusted geometric mean", "setting": "[2]; [8]", "result": 529.0, "unit": "ng/mL"}, {"measurement": "AUC12, adjusted geometric mean", "setting": "[2]; [9]", "result": 2947, "unit": "ng·h/mL"}, {"measurement": "C12, adjusted geometric mean", "setting": "[2]; [9]", "result": 63.10, "unit": "ng/mL"}, {"measurement": "Cavg, adjusted geometric mean", "setting": "[2]; [9]", "result": 245.8, "unit": "ng/mL"}, {"measurement": "Cmax, adjusted geometric mean", "setting": "[2]; [9]", "result": 731.0, "unit": "ng/mL"}, {"measurement": "AUC24, adjusted geometric mean", "setting": "[2]; [10]", "result": 4413, "unit": "ng·h/mL"}, {"measurement": "C24, adjusted geometric mean", "setting": "[2]; [10]", "result": 56.56, "unit": "ng/mL"}, {"measurement": "Cavg, adjusted geometric mean", "setting": "[2]; [10]", "result": 184.1, "unit": "ng/mL"}, {"measurement": "Cmax, adjusted geometric mean", "setting": "[2]; [10]", "result": 633.6, "unit": "ng/mL"}, {"measurement": "AUC24, adjusted geometric mean", "setting": "[2]; [11]", "result": 3645, "unit": "ng·h/mL"}, {"measurement": "C24, adjusted geometric mean", "setting": "[2]; [11]", "result": 56.34, "unit": "ng/mL"}, {"measurement": "Cavg, adjusted geometric mean", "setting": "[2]; [11]", "result": 151.7, "unit": "ng/mL"}, {"measurement": "Cmax, adjusted geometric mean", "setting": "[2]; [11]", "result": 432.9, "unit": "ng/mL"}, {"measurement": "Tmax, median (range)", "setting": "[2]; part 2, maraviroc 150 mg once daily with darunavir/cobicistat 800/150 mg once daily", "result": "~3.0 (1.0 to 6.0) hours"}, {"measurement": "adjusted geometric mean Cmax lower, black EMs (cohort 3) vs black PMs (cohort 1)", "setting": "[2]; part 2, with darunavir/cobicistat", "result": "~32", "unit": "%"}, {"measurement": "substrate for efflux transporter P-glycoprotein", "setting": "P‐glycoprotein", "result": "substrate"}, {"measurement": "Cavg, median (interquartile range)", "setting": "[3]; EM group", "result": "103 (90‐117) ng/mL"}, {"measurement": "median AUC lower, EMs compared with PMs", "setting": "[3]; [12]", "result": 41, "unit": "%"}, {"measurement": "median AUC lower, IMs compared with PMs", "setting": "[3]; [12]", "result": 16, "unit": "%"}, {"measurement": "Cavg, Median (Range)", "setting": "Study 1; CYP3A5 EM, all subjects", "result": "165.2 (28.6–318.1) n = 53 ng/mL"}, {"measurement": "Cavg, Median (Range)", "setting": "Study 1; CYP3A5 EM, blacks", "result": "169.6 (28.6–318.1) n = 44 ng/mL"}, {"measurement": "Cavg, Median (Range)", "setting": "Study 1; CYP3A5 EM, whites", "result": "101.5 (78.3–209.6) n = 3 ng/mL"}, {"measurement": "Cavg, Median (Range)", "setting": "Study 1; CYP3A5 IM, all subjects", "result": "144.9 (37.0–534.5) n = 127 ng/mL"}, {"measurement": "Cavg, Median (Range)", "setting": "Study 1; CYP3A5 IM, blacks", "result": "166.0 (39.1–534.5) n = 61 ng/mL"}, {"measurement": "Cavg, Median (Range)", "setting": "Study 1; CYP3A5 IM, whites", "result": "132.4 (37.0–329.3) n = 52 ng/mL"}, {"measurement": "Cavg, Median (Range)", "setting": "Study 1; CYP3A5 PM, all subjects", "result": "137.7 (0.8–355.6) n = 314 ng/mL"}, {"measurement": "Cavg, Median (Range)", "setting": "Study 1; CYP3A5 PM, blacks", "result": "144.4 (0.8–257.9) n = 33 ng/mL"}, {"measurement": "Cavg, Median (Range)", "setting": "Study 1; CYP3A5 PM, whites", "result": "132.8 (20.9–355.6) n = 256 ng/mL"}, {"measurement": "subjects with predicted Cavg ≥75 ng/mL", "setting": "Study 1; study 1, maraviroc 300 mg twice daily, irrespective of CYP3A5 genotype or race", "result": "approximately 90%"}, {"measurement": "median estimated Cavg higher in CYP3A5*1/*1 genotype vs no CYP3A5*1 alleles", "setting": "Study 1; study 1, subpopulation of blacks", "result": 17, "unit": "%"}, {"measurement": "median estimated Cavg lower for EMs than for PMs", "setting": "Study 1; study 1, whites (3 EMs)", "result": 24, "unit": "%"}, {"measurement": "estimated median Cavg in PMs higher in black subjects compared with whites", "setting": "Study 1; study 1 post hoc analysis", "result": "approximately 9%"}, {"measurement": "substrate for uptake transporter organic anion-transporting polypeptide 1B1", "setting": "[4]", "result": "substrate"}]}]}
